Pooled drug test results. Numbers come from NIAID ChemDB, via PubChem.

Shared fields: enzyme or target tests; species: Human cytomegalovirus; target: Protease; endpoint: IC50

ICn is the concentration giving n% inhibition.

SMILES | method | strain | result
CC(=O)C(C(=O)OCc1ccccc1)C1=C(Cl)C(=O)c2ccccc2C1=O | HPLC |  | 4.8 µM
CC[C@@H](NC(=O)N1C(=O)C[C@@H]1CSc1ccccc1)c1ccccc1 |  |  | 2.6 µM
COC(=O)[C@H](Cc1ccccc1)Nc1nc2ccc(NC(=O)C3CCC3)c(C)c2c(=O)o1 |  |  | 0.57 µM
COc1ccc2nc(SCc3c(N)cc(C)c(OC)c3C)[nH]c2c1 |  |  | 54 µM
CC(C)NC(=O)N1C(=O)C[C@H]1Oc1ccc(C(=O)O)cc1 |  |  | >100 µM
CCC(NC(=O)N1C(=O)[C@@H](C)[C@@H]1Cc1ccccc1)c1ccncc1 |  |  | 9 µM
O=C1C[C@H](Cc2ccco2)N1C(=O)NCc1ccc(C(F)(F)F)cc1 |  |  | 7.1 µM
CC[C@@H](NC(=O)N1C(=O)C[C@@H]1CSc1nc2ccccc2o1)c1ccccc1 |  |  | 3.8 µM
CC1(C)CC(=O)C(C2=C(Cl)C(=O)c3ccccc3C2=O)C(=O)C1 | scintillation proximity |  | 0.73 µM
COC(=O)[C@H](CC(=O)O)Nc1nc2ccc(NC(=O)OC(C)(C)C)c(C)c2c(=O)o1 |  |  | 4.2 µM
CC(C)c1ccc(NC(=O)N2CCC[C@H]2C(=O)N2CC[C@H]3[C@H]2[C@H](C)C(=O)N3C(=O)c2nccs2)cc1 |  | AD169 | >24 µM
Cc1c(NC(=O)OC(C)(C)C)ccc2nc(N[C@@H](C)C(=O)OCc3ccccc3)oc(=O)c12 |  |  | 4.7 µM
CC[C@@H](NC(=O)N1C(=O)C[C@@H]1CSc1nccn1C)c1ccccc1 |  |  | 3.7 µM
CNC(=O)N1CCC1=O |  |  | >500 µM
O=C1C[C@@H](Cc2ccccc2)N1C(=O)NCc1ccncc1 |  |  | >75 µM
CC(C)c1ccc(NC(=O)N2CCC[C@H]2C(=O)N2CC[C@H]3[C@H]2[C@H](C)C(=O)N3C(=O)C2C(C)(C)C2(C)C)cc1 |  | AD169 | 16 µM
Cc1c(Br)ccc2nc(N[C@H](C)C(=O)OC(C)(C)C)oc(=O)c12 |  |  | 1.8 µM
O=C1C[C@H](Cc2cccs2)N1C(=O)NCc1ccc([N+](=O)[O-])cc1 |  |  | 1.3 µM
COC(=O)C1(Nc2nc3ccc(NC(=O)CN(C)C)c(C)c3c(=O)o2)CC1 |  |  | 1.4 µM
O=C1C[C@H](Cc2nc3ccccc3[nH]2)N1C(=O)NCc1ccc(C(F)(F)F)cc1 |  |  | >50 µM
O=C1C[C@H](CSc2ncccn2)N1C(=O)N1CCC[C@H]1c1ccccc1 |  |  | 38 µM
COc1ccc2nc(S(=O)(=O)Cc3c(N)cc(C)c(OC)c3C)[nH]c2c1 |  |  | >100 µM
O=C1C[C@H](Cc2nc3ccccc3[nH]2)N1C(=O)NCc1ccc([N+](=O)[O-])cc1 |  |  | >75 µM
Cc1ccc2nc(N[C@@H](C)c3ccccc3)oc(=O)c2c1 |  |  | 4.9 µM
COc1c(C)cc(N)c(CS(=O)c2nc3ccccc3[nH]2)c1C |  |  | 4.3 µM

Again, the opening 3 rows:

{"SMILES": "CC(=O)C(C(=O)OCc1ccccc1)C1=C(Cl)C(=O)c2ccccc2C1=O", "method": "HPLC", "result": "4.8 µM"}
{"SMILES": "CC[C@@H](NC(=O)N1C(=O)C[C@@H]1CSc1ccccc1)c1ccccc1", "result": "2.6 µM"}
{"SMILES": "COC(=O)[C@H](Cc1ccccc1)Nc1nc2ccc(NC(=O)C3CCC3)c(C)c2c(=O)o1", "result": "0.57 µM"}

Lines come from different laboratories, so protocols vary. Blank or dashed fields: not listed here.